1 substance from PMC6630517 (Molecules, 2019) can be followed below.

The test system of the data set is zebrafish (Danio rerio) embryos. Briefly: Zebrafish embryo toxicity (lethal, developmental, cardiotoxicity). On the procedure:
The toxicity evaluation of B12-JR1, B12-JR1-CBC and vitamin B12 in the zebrafish model was carried out according to general rules of the OECD Guidelines for the Testing of Chemicals. […] Embryos of wild type zebrafish (Danio rerio, AB strain) were raised in a temperature- and light-controlled zebrafish facility with 28 °C and standard 14:10-h light-dark photoperiod, and regularly fed with commercially dry flake food (TetraMin™ flakes; Tetra Melle, Germany) twice a day and Artemia nauplii once daily. Zebrafish embryos were produced by the pair-wise mating, collected and distributed into 24-well plates containing 10 embryos per well and 1 mL embryos water (0.2 g L^−1 of Instant Ocean® Salt in distilled water), and raised at 28 °C. […] Experiments were performed three times using 30 embryos per concentration. Apical endpoints for the toxicity evaluation (Table S1) were recorded at 24, 48, 72, 96 and 120 hpf using an inverted microscope (CKX41; Olympus, Tokyo, Japan). […] Experiments were performed three times using 5 embryos per concentration. The hepatotoxicity was determined according to the change of liver area index compared to the control group, calculated as the ration between liver area and embryonic lateral area x 100%, as reported by Zhang et al.. In addition, the liver colour and retention of yolk were followed as the phenotypic signs of hepatotoxicity.

Values joined by “and” are separate entries in the source; they are usually repeats but may differ in a detail not shown here. Equal entries are not always repeated.

“cobalamin-7-chloro-N-(2-(4-(4-ethynylphenyl)-1H-1,2,3-triazol-1-yl)ethyl)quinolin-4-amine [Compound B12-JR1]”: the “Ti (LC50/IC50) K1, therapeutic window” value is > 16 and >16.3.
